The text below walks through data of paper PMC5630374.

Data set [1] concerns His-CalR (Vibrio parahaemolyticus RIMD2210633). In words: DNase I footprinting. Conditions: 10 mM Tris-HCl pH 7.5, 50 mM NaCl, 1 mM MgCl2, 0.5 mM EDTA, 0.5 mM DTT, room temperature, recombinant protein, residues 1-319, protein details: 6xHis (pET28a), label: FAM or HEX, probe letters rebuilt from the primers and the genome.
The test system is the same in data set [2]. Briefly: EMSA. Conditions: 10 mM Tris-HCl pH 7.5, 50 mM NaCl, 1 mM MgCl2, 0.5 mM EDTA, 0.5 mM DTT, room temperature; recombinant protein; residues 1-319; protein details: 6xHis (pET28a); probe letters rebuilt from the primers and the genome.

In the case of “CAGGAAACAGCTATGACCGAGCGAATTACTATTTGGATCAAAGGTAAACCTTTGAGCAAGTAGAAATTTGGTGCCGATGTTAGTCATTTAGTTCTTCTTAGATGGATGATGTTGTAATTATGGTGATTTATATCACAAAATTACGTTTGCGCATGGGAGATACGCGACGTTTTAGATGCTTTTAGGGGGGTAGGATAATTAAATTTTTCTAAAAAAACACCGTTTTTAGCAATATTGACCTTGAATTTACATTTGTCAGCCACATGTTAAATGACATCTTAGTGTGGTGATTTCATGGGGCTAAATCACAAAGTCGTCCCTGAAAACTGGCCGTCGTTTTAC (double strand) [toxR promoter, footprint fragment]”, the binding result in data set [1] (5.52-11.04 pmol protein) is listed as “binds”.
With “ATTGTCCGTCAAATGCAGTTCAGGCAAGCCTATTTGATGAGCAAACTTCTGTAAAACCTCATCGATAGTTTGGCGTGCTGACATAGAAACAGTCCTTTTGAGAATTTTATCGGGAAACATATTCGATATCGTGGGGTGTGTTTATCAATTTTGGTTGTTAGTTATTATATTTTGGCCGGAAACCCAGAATTGACTCCTTGCTTCTAATCTTACAAATGAGTGCTGGTGCATATAAAGATTAACGGTTATTAAATTCTATTATGGTGGGATTTTGGTTTATATCGACAAGCGATGAAGAATTAGAATTGTGTTATCTTAAAAATTAAATACTATGTTAATTACGTGTTGTACGTGGAACGTTATTGCTGTCCATCTGTAGAATAAATATAAGCCGAAAATTTAAACGTACACATAAGAATTTGTGTAAAAATAAATCATAATAAGACGATAAAAATAATTTATGGGAGCCTAAATGAAAAGCAGTAAGTGGGCCGGTCTTATCGGTTTAATGTTATTGACTGGATGCGCTCAGTCCGTGGGGACTTCACAGCCATTTTCCGTTCAGAGCCAAGCGAATGTATATG (double strand) [exsB promoter, EMSA fragment]”, in data set [2], the binding result is “binds”.
Same read-out and setting: with “CAGATTGCTGAATATCGGTGATGTATGAGAAATCGTTCAATGTAAAAAATATGCGCAATGATTGATGCTGGGAGAATAGAAAGGATGAGGTGGTATTTATAGTGAATATTGGTCGGGAGTTTTTAGAAAACTGAAAACGCCCTAAAAAAACACGTCTGATTTTGACAGCCTGATAAAAACGCACTTCATATAATTCGCTTGTATTGTACGAAAGGAGTGCAAGTGAATGAGTATTATCAATAGTCAGATAGCAACCAACACCAAGTTTGATGCATCGGTCCGGAATGGATTGGAATCGTCTCGTGCGGACAGTGCCGTAAAAGGCAGTTATCGAGGTGAGACCGTGCGCGTGCACAACGCCACTCAATCGCTT (double strand) [vp1667 promoter, EMSA fragment]” the entry was “binds”.
Consider “CAGGAAACAGCTATGACCAAGCCAATGAGCGTCAGGCGATCATCCTCAGCACGCACAGTGATTGCCGTGTCTTGGTCAATCAAAAGATGACAGCAATCGTCGCCATCAAAAAACAGTTGTTCTATTTGGCAACGGTGAGCAAAATCCGTCATCAAAGCGGTAATAAATCCATTAGCCATTTGAATGAATAATCCTATAGTGCTTGTTACGAATTCGGCAGACGAGTCATGAAAACAGAGTGACCCAGAGCCGTTTTGATGCTGTTATTTTTCATCATTCGGCGCGATTAATATGCTAAAGATGGTCGGATTTTTTTCGTTTTAAGACGTTTGAAAACAACAAAGCTCAGCAATGTGCTGAGCTTTGTGTTCGATTGATTTGGCGGTGATGCCCTACTCTGGTGACTGGCCGTCGTTTTAC (double strand) [vp1687 promoter, footprint fragment]”, for which the binding result in data set [1] is recorded as “binds”.
Still for that read-out and setting: with “GTAAAACGACGGCCAGTCAGATTGCTGAATATCGGTGATGTATGAGAAATCGTTCAATGTAAAAAATATGCGCAATGATTGATGCTGGGAGAATAGAAAGGATGAGGTGGTATTTATAGTGAATATTGGTCGGGAGTTTTTAGAAAACTGAAAACGCCCTAAAAAAACACGTCTGATTTTGACAGCCTGATAAAAACGCACTTCATATAATTCGCTTGTATTGTACGAAAGGAGTGCAAGTGAATGAGTATTATCAATAGTCAGATAGCAACCAACACCAAGTTTGATGCATCGGTCCGGAATGGATTGGAATCGTCTCGTGCGGACAGTGCCGTAAAAGGCAGTTATCGAGGTGAGACCGTGCGCGTGCACAACGCCACTCAATCGCTTGTCATAGCTGTTTCCTG (double strand) [vp1667 promoter, footprint fragment]” the entry was “binds”.
For “GTAAAACGACGGCCAGTCCGTTGGTTATTGATAGGTGGGGTAAATGTGTTTCGATGTTTGTTCTTAGTCTTATCAATTTGCTAAATACATACTCAAAGAGTGTGGTTTTAGTTGTTTTATAGTTTTTTATGTTTTTTTCAATTTGTTGATTTTAAATGATTAAATACCTAAGTGGCTAAAATTTAGTGATTAAATATCAATCTAGTTGCTAAACCCCAATCGATTAGTTGATAGTACGCTTCGAGCCGGAAGTATCCGGACGATAAATATAATAAAAATTAGGTTTCTATTCGTAAAAATGATTCGAATCCAGCCGCCGTCTTTTGTGCGAGATGGGATTCTATTCGTTATGAATTCATTGAAACAATTTGACGATTACAAAAGAGGCGCACTCAATGTTAGAGAAGAAAGATGCGATGAGCGCAATTGCTAGCTACCGTATGGAAAGCACTTTGCGTGGTGTAGATTTGAACCTACTGACTGTATTTGATGCTGTGATGCAAGAGCAAAATATCACTCGTGCAGCACACAACTTAGGCATGTCTCAACCGGCAGTAAGTAATGCCGTGGGTCATAGCTGTTTCCTG (double strand) [calR promoter, CalR footprint fragment]”, in data set [1], the binding result is listed as “binds”.
For “GCATTATTGACGCCAGTATCGATGGACAGATTCAGGCGTTAAAGCAAGCGATGGTGAAACAACTCAGTGAGCGGAAAATGACGTCACCAGAGTAGGGCATCACCGCCAAATCAATCGAACACAAAGCTCAGCACATTGCTGAGCTTTGTTGTTTTCAAACGTCTTAAAACGAAAAAAATCCGACCATCTTTAGCATATTAATCGCGCCGAATGATGAAAAATAACAGCATCAAAACGGCTCTGGGTCACTCTGTTTTCATGACTCGTCTGCCGAATTCGTAACAAGCACTATAGGATTATTCATTCAAATGGCTAATGGATTTATTACCGCTTTGATGACGGATTTTGCTCACCGTTGCC (double strand) [vp1687 promoter, EMSA fragment]”, the binding result in data set [2] is reported as “binds”.
Same read-out and setting: with “CGAGCGAATTACTATTTGGATCAAAGGTAAACCTTTGAGCAAGTAGAAATTTGGTGCCGATGTTAGTCATTTAGTTCTTCTTAGATGGATGATGTTGTAATTATGGTGATTTATATCACAAAATTACGTTTGCGCATGGGAGATACGCGACGTTTTAGATGCTTTTAGGGGGGTAGGATAATTAAATTTTTCTAAAAAAACACCGTTTTTAGCAATATTGACCTTGAATTTACATTTGTCAGCCACATGTTAAATGACATCTTAGTGTGGTGATTTCATGGGGCTAAATCACAAAGTCGTCCCTGAAAAAGCCTGTTAGTTTAGATGTTATGGAGCACACATGAGCGAAACCGTATCTCAAAATAAAGAAACTCGTGGTTTTCAATCAGAAGTAAAACAACTACTTCATTTAATGATCCATTCTCTTTATTCCAATAAAGAGATCTTTTTGCGCGAGCTGATTTCTAACGCATCAGATGCATCAGACAAATTGCGTTTTCAGGCACTTTCGAATCCAGATTTATATGAAGGTAACGCAGATCTTGGCGTTAAGCTGTCATTTGATGAAAGTGCAAATACCTTAACGAT (double strand) [toxR promoter, EMSA fragment]” the entry was “binds”.
